PubChem BioAssay AID624099, ICCB-Longwood – 2012
Purpose: 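Human genes that papillomavirus E2 requires to repress the HPV18 LCR promoter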 (primary screen). Cell system: human C33A cervical carcinoma cells (HPV-negative) stably expressing BPV1 E2 and an HPV18 LCR luciferase reporter. Reagent: siRNA pool against human genes, 40 nM. Time to read-out: 72 h. Detection: 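HPV18 LCR reporter light per well, converted to plate-wise z-scores that exclude control wells, and averaged over triplicate plates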. Reading the numbers: mean z-score and z-score: higher = stronger reporter signal, weaker E2 silencing. Call rule: 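Hit if mean z-score reaches 2 and two or more of three replicate z-scores also reach 2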.
Here is a random part of about 21,000 deposited reagents. 497 of all reagents (2.4%) count as active. 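Higher z means weaker E2 silencing; only reporter increases were scored, and knock-downs that hurt cell survival may mask genuine repressor factors.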 The numbers tell different reagents against one gene apart.

The opening 3 records, to show the layout:
gene,pool no.,mean z-score,"z-score, replicate A","z-score, replicate B","z-score, replicate C",Call
SMS,1,0.27,0.09,0.05,0.65,inactive
LOC399919 (retired record),1,-0.53,-0.56,-0.45,-0.56,inactive
G6PC1,1,0.91,1,0.85,0.87,inactive

The list itself, repeating the preview:
gene,pool no.,mean z-score,"z-score, replicate A","z-score, replicate B","z-score, replicate C",Call
SMS,1,0.27,0.09,0.05,0.65,inactive
LOC399919 (retired record),1,-0.53,-0.56,-0.45,-0.56,inactive
G6PC1,1,0.91,1,0.85,0.87,inactive
PFN4,1,0.41,0.38,0.41,0.42,inactive
APRT,1,-0.67,-0.56,-0.81,-0.64,inactive
CCDC68,1,0.46,0.09,0.88,0.41,inactive
IKZF4,1,-1.31,-1.06,-1.4,-1.46,inactive
XBP1,1,1.28,1.25,1.4,1.2,inactive
RHPN1,1,-0.29,-0.1,-0.34,-0.42,inactive
VRTN,1,-0.67,-0.72,-1.08,-0.21,inactive
APOC2,1,-1.04,-0.67,-1.38,-1.07,inactive
C10orf88,1,-1.62,-1.12,-2.01,-1.71,inactive
SHLD2P1,1,-1.32,-1.59,-1.28,-1.09,inactive
LOC400943 (retired record),1,0.11,0.15,-0.11,0.29,inactive
TRIAP1,1,-0.9,-0.63,-1.22,-0.84,inactive
LOC400301 (retired record),1,0.05,0.26,-0.35,0.24,inactive
ATP2B1,1,-0.2,0.1,-0.44,-0.26,inactive
NUDT22,1,1.9,1.56,2.83,1.3,inactive
DEAF1,1,-0.72,-0.87,-0.8,-0.49,inactive
DAGLB,1,0.04,-0.11,-0.01,0.23,inactive
CMPK2,1,-0.47,-0.55,-0.28,-0.59,inactive
CEP70,1,-1.01,-1.04,-1.09,-0.92,inactive
KRT73,1,2.3,2.49,2.34,2.06,active
PCDHA8,1,0.08,0,-0.06,0.28,inactive
ERCC3,1,-1.22,-1.34,-1.24,-1.07,inactive
STMND1,1,-0.67,-0.94,-0.32,-0.75,inactive
SMCR5,1,0.14,0.32,-0.07,0.17,inactive
CGB1,1,0.44,2.05,-0.33,-0.39,inactive
ELF4,1,-0.81,-0.77,-0.67,-0.97,inactive
DEFB1,1,0.41,0.47,0.63,0.15,inactive
MCRS1,1,1.73,1.86,1.5,1.84,inactive
RPS25,1,-0.83,-1.19,-0.85,-0.44,inactive
CFHR5,1,-0.08,0.51,-0.54,-0.22,inactive
LOC388019 (retired record),1,1.27,1.03,1.12,1.67,inactive
NOC4L,1,-0.61,-0.44,-0.75,-0.63,inactive
COLGALT1,1,-0.82,-1.3,-0.87,-0.28,inactive
MXD3,1,5.19,5,5.17,5.4,active
MROH1,1,-2.32,-2.41,-2.2,-2.36,inactive
MROH1,2,0.3,0.34,0.3,0.27,inactive
